Anti-infective test results gathered from many reports (values: NIAID ChemDB through PubChem).

Common to all: tests in culture; species: Herpes simplex virus 1; read-out: EC50

An empty or dashed field is not shown.

compound	method	strain or isolate	cell line	value
O=c1[nH]c(=O)n([C@H]2C[C@@H](CO)[C@H](O)C2)cc1/C=C/Br	cytopathic effect	F	PRK	10 µg/mL
Cc1cc([C@H]2C[C@H](O)[C@@H](CO)O2)c(F)cc1F	cytopathic effect	KOS	E6SM	>400 µg/mL
O=c1[nH]c(=O)n([C@H]2C[C@@H](CO)[C@H](O)C2)cc1I	cytopathic effect	KOS	PRK	1 µg/mL
O=c1[nH]c(=O)n([C@H]2C[C@H](O)[C@@H](O)O2)cc1C#Cc1ccc2c3cccc4cccc(c5cccc1c52)c43		KOS	VERO	0.048 µM
CCOC(=O)C1=CN(COCCOC(C)=O)S(=O)(=O)N=C1N		F	E6SM	>400 µg/mL
Nc1cc([C@H]2C[C@H](O)[C@@H](CO)O2)c(F)cc1F	cytopathic effect	VMW 1837	E6SM	>400 µg/mL
CC1=CC(=O)N(c2ccccc2)S(=O)(=O)N1COCCO		McIntyre	E6SM	>400 µg/mL
CCc1cn([C@@H]2S[C@H](CO)[C@@H](O)[C@@H]2F)c(=O)[nH]c1=O	cytopathic effect	VR		0.012 µg/mL
OC[C@H]1O[C@H](c2cc(Br)c(F)cc2F)C[C@@H]1O	cytopathic effect	VMW 1837	E6SM	>400 µg/mL
C/C(=N\NC(=S)NC12CC3CC(CC(C3)C1)C2)c1ccccn1	plaque count	HF	BHK-21/4	4.6 µg/mL
OC[C@H]1O[C@@H](c2cc(Br)c(F)cc2F)C[C@@H]1O	cytopathic effect	F	E6SM	>400 µg/mL
Cc1cn([C@@H]2O[C@H](COP(=O)(O)O)[C@@H](O)[C@@H]2O)c(=O)[nH]c1=O	cytopathic effect	CHR-3	HELF	1 µg/mL
Cc1ccn2c(C3OCCO3)cnc2c1		B2006 (TK-)	E6SM	>1000 µM
CCCCCCCCc1cc2cnc(=O)[nH]c2o1	cytopathic effect	KOS	HEL	>200 µM
CC1(C)O[C@@H]2[C@H](O1)[C@@H](COS(=O)(=O)NC(=O)OC1O[C@H](CO)[C@@H](O)[C@H](O)[C@H]1O)O[C@H]2n1ccc(=O)[nH]c1=O	cytopathic effect		HeLa	75 µM
NC1=CC(N)=NS(=O)(=O)N1COCCO		KOS	E6SM	>400 µg/mL
Nc1nc2c(ncn2CC[C@H](O)CO)c(=O)[nH]1	plaque count	C42	HEL	4 µM
CCCCCCCCCCCCCCCCCC(=O)NC(C)(C)C(=O)N1C[C@@H](O)C[C@H]1C(=O)N[C@@H](CC(C)C)C(=O)N[C@H](C(=O)N[C@@H](CCC(N)=O)C(=O)N[C@@H](CC(C)C)C(=O)OC)C(C)C	ELISA		VERO	1.6 µM
Nc1nc(-n2c(-c3ccccc3)nc3ccc(Br)cc3c2=O)nnc1-c1cccc(Cl)c1Cl	cytopathic effect	KOS	E6SM	48 µg/mL
N#CC1=CN(COCCO)S(=O)(=O)N=C1N		VMW1837 (TK-)	E6SM	>400 µg/mL
CCCCCCCC#Cc1cn(S(=O)(=O)c2ccc(C)cc2)c(=O)[nH]c1=O	cytopathic effect	KOS	HEL	>200 µM
CCCCCCCCCC(=O)NC(C)(C)C(=O)N1C[C@@H](O)C[C@H]1C(=O)N[C@@H](CC(C)C)C(=O)N[C@H](C(=O)N[C@@H](CCC(N)=O)C(=O)N[C@@H](CC(C)C)C(=O)OC)C(C)C	ELISA		VERO	7 µM
COc1cc(Cc2cnc(-n3c(C)nc4ccc(Br)cc4c3=O)nc2N)cc(OC)c1OC	cytopathic effect	KOS	E6SM	>80 µg/mL
OC[C@H]1O[C@H](c2cc(Cl)c(F)cc2F)C[C@@H]1O	cytopathic effect	KOS/ACV-R	E6SM	>400 µg/mL
CCCCc1cc2cnc(=O)[nH]c2o1	cytopathic effect	KOS	HEL	>200 µM
Cc1ccn2c(C(SCCc3ccccc3)SCCc3ccccc3)cnc2c1		VMW 1837 (TK+/TK-)	E6SM	>1000 µM
O=c1[nH]c(=O)n([C@@H]2S[C@H](CO)[C@@H](O)[C@@H]2F)cc1CCCl	cytopathic effect	VR		0.11 µg/mL
O=c1[nH]c(=O)n([C@@H]2C[C@H](CO)[C@@H](O)C2)cc1I	cytopathic effect	B2006 (TK-)	PRK	>400 µg/mL
Cc1cccn2c(C3OCCS3)cnc12		B2006 (TK-)	E6SM	>1000 µM
CCCCCCCCCCCCCC(=O)N[C@H](C)C(=O)N1C[C@@H](O)C[C@H]1C(=O)N[C@@H](CC(C)C)C(=O)N[C@H](C(=O)N[C@@H](CCC(N)=O)C(=O)N[C@@H](CC(C)C)C(=O)OC)C(C)C	ELISA		VERO	9.3 µM
CCc1nc(-n2c(-c3ccccc3)nc3ccc(Br)cc3c2=O)nc(N)c1-c1ccc(Cl)cc1	cytopathic effect	KOS	E6SM	>16 µg/mL
Nc1nc(N)c2ncn([C@H]3S[C@H](CO)[C@@H](O)[C@@H]3F)c2n1	cytopathic effect	VR		9 µg/mL
CCCCC#Cc1cn(S(=O)(=O)c2ccc(C)cc2)c(=O)[nH]c1=O	cytopathic effect	KOS	HEL	>40 µM
CCOC(=O)C1=CN(COCCO)S(=O)(=O)NC1=O		B206 (TK-)	E6SM	>400 µg/mL
O=C(NS(=O)(=O)OC[C@H]1O[C@@H](n2ccc(=O)[nH]c2=O)[C@H](O)[C@@H]1O)O[C@H]1O[C@H](COC(=O)c2ccccc2)[C@@H](OC(=O)c2ccccc2)[C@H](OC(=O)c2ccccc2)[C@H]1OC(=O)c1ccccc1	cytopathic effect		HeLa	85 µM
O=c1[nH]c(=O)n(C2CC(CO)[C@H](O)C2)cc1I	cytopathic effect	VMW1837 (TK-)	PRK	>400 µg/mL
O=c1[nH]c(=O)n([C@H]2S[C@H](CO)[C@@H](O)[C@@H]2F)cc1F	cytopathic effect	VR		>27 µg/mL
Nc1nc2c(ncn2CCC(O)CO)c(=O)[nH]1	plaque count	C915 TK-	VERO	>200 µM
OC[C@H]1O[C@H](c2ccc(F)cc2F)C[C@@H]1O	cytopathic effect	F	E6SM	>400 µg/mL
CCCCCCCCCCCCCCCC(=O)NC(C)(C)C(=O)N1C[C@@H](O)C[C@H]1C(=O)N[C@@H](CC(C)C)C(=O)N[C@H](C(=O)N[C@@H](CCC(N)=O)C(=O)N[C@@H](CC(C)C)C(=O)OC)C(C)C	ELISA		VERO	1.7 µM
Nc1nc2c(ncn2CCCCO)c(=O)[nH]1	plaque count	KJ502	VERO	5 µM
C/C(=N\NC(=S)N(C)C)c1ccccn1	plaque count	HF	BHK-21/4	0.08 µg/mL
CCCCCCCc1cc2cnc(=O)[nH]c2o1	cytopathic effect	KOS	HEL	>200 µM
COC(=O)[C@H](CC(C)C)NC(=O)[C@H](CCC(N)=O)NC(=O)[C@@H](NC(=O)[C@H](CC(C)C)NC(=O)[C@@H]1C[C@H](O)CN1C(=O)C(C)(C)NC(=O)CCCCCCCCCCCCCCCO)C(C)C	ELISA		VERO	2.3 µM
CC(=O)N[C@@H]1[C@@H](O)[C@H](O)[C@@H](CO)O[C@H]1N[C@H]1[C@H](O)[C@@H](C(=O)O)OC(OC2CC[C@@]3(C)C(CC[C@]4(C)C3C(=O)C=C3C5C[C@@](C)(C(=O)O)CC[C@]5(C)CC[C@]34C)C2(C)C)[C@@H]1OC1O[C@H](O)[C@@H](O)[C@H](O)[C@H]1C(=O)O	cytopathic effect		VERO	4 µg/mL
OC[C@H]1O[C@H](c2cc(F)c(F)cc2F)C[C@@H]1O	cytopathic effect	KOS	E6SM	>400 µg/mL
C/C(=N\NC(=S)N(C)C1CCCCC1)c1ccccn1	plaque count	HF	BHK-21/4	0.22 µg/mL

ECn: concentration that inhibits the pathogen or its effect by n%. Conditions beyond the fields shown may differ between rows.